Anti-infective test results gathered from many reports (values: NIAID ChemDB through PubChem).

Shared fields: growth or infection tests; species: HIV-1; cell line: MT-4; measure: EC50

ECn is the concentration giving n% inhibition of infection, replication or growth.

Cc1cn(CCCCO[C@H]2C=C[C@@H](CO)O2)c(=O)[nH]c1=O ; strain: IIIB ; read by: cytopathic effect / MTT ; value: >33 µg/mL
CC1(C)CC=C(c2cn(-c3nccc(C(=O)NC4CCC(N5CC6CCC(C5)O6)CC4)n3)c3ccc(F)c([C@H](OC(C)(C)C)C(=O)O)c23)CC1 ; strain: NL4-3 ; mutations: T124S/T125A ; read by: luminescence ; value: 0.0055 µM
S=C(NCc1ccco1)Nc1cccc(Cl)c1 ; strain: IIIB ; read by: MTT ; value: >60 µM
CCCn1c(Sc2ccccc2)c(N)c(=O)[nH]c1=O ; strain: IIIB ; value: >44.3 µg/mL
O=C(O)Cc1ccc(O)c(O)c1 ; strain: IIIB ; read by: cytopathic effect / MTT ; value: 8 µg/mL
CC(C)C(NC(=O)OCc1ccccc1)C(=O)N[C@H](CC[C@H](O)[C@H](Cc1ccccc1)NC(=O)C(NC(=O)OCc1ccccc1)C(C)C)Cc1ccccc1 ; strain: IIIB ; value: >100 µM
Nc1ccn([C@H]2CC[C@@H](CO)O2)c(=O)n1 ; mutations: K103N ; read by: MTT ; value: 0.33 µM
CCOC(=O)C12C(c3ccc(O)cc3)C3(C(=O)OCC)C4(C)OC1(C)C1(C(=O)OCC)C(c5ccc(O)cc5)C4(C(=O)OCC)C3(C)OC21C ; strain: IIIB ; read by: p24 / ELISA ; value: 0.03283 µM
S=C(Nc1ccc(Cl)c(Cl)c1)NC1CCN(Cc2ccccc2)CC1 ; strain: IIIB ; read by: MTT ; value: >7.3 µM
N#Cc1cc(Cl)cc(Oc2ccc(Br)c(-n3c(=O)[nH]c4cnccc43)c2F)c1 ; read by: MTT ; value: 0.0004 µM
Cc1cccc(O)c1O ; strain: IIIB ; read by: cytopathic effect / MTT ; value: 75 µg/mL
CC(C)=CCN1Cc2c(C)ccc3[nH]c(=S)n(c23)C[C@@H]1C ; strain: IIIB ; read by: cytopathic effect ; value: 0.136 µM
O=C1OC(C(O)Cn2cc(C(F)(F)F)c(=O)[nH]c2=O)C(OCc2ccccc2)=C1OCc1ccccc1 ; value: >50 µg/mL
Nc1ccn([C@@H]2OC[C@@H](CO)[C@H]2O)c(=O)n1 ; read by: cytopathic effect / MTT ; value: >100 µM
Cc1cc(C)cc(S(=O)(=O)c2c(C(N)=O)[nH]c3c(Cl)cc(Cl)cc23)c1 ; strain: IIIB ; read by: cytopathic effect / MTT / p24 ; value: 1.6 µM
O=C(COc1ccc2ccccc2c1)NCC(=O)NNC(=S)NCc1ccccc1 ; strain: IIIB ; read by: MTT ; value: >67 µg/mL
Cc1cc(C)cc(Oc2c(C(C)C)c(=O)[nH]c(=O)n2Cc2ccc3ccccc3c2)c1 ; read by: cytopathic effect / MTT ; value: 0.015 µg/mL
O=C(O)c1cc(O)c(O)c(O)c1 ; strain: IIIB ; read by: cytopathic effect / MTT ; value: 11 µg/mL
O=C(COc1ccc2ccccc2c1)NCC(=O)NNC(=S)Nc1ccccc1 ; strain: IIIB ; read by: MTT ; value: >67.9 µg/mL
C=CCOCn1c(C(F)c2cccc(C#N)c2)c(CC)c(=O)[nH]c1=O ; strain: IIIB ; mutations: K103N + Y181C ; read by: MTT ; value: 20 µM
Cc1cc(C)cc(S(=O)(=O)c2c(C(=O)NS(=O)(=O)C(F)(F)F)[nH]c3ccc(Cl)cc23)c1 ; mutations: E138K ; read by: MTT ; value: 3.78 µM
O=c1c([N+](=O)[O-])c(Sc2ccccc2)nc2[nH]c(-c3ccccc3)cn12 ; strain: IIIB ; value: >2.56 µg/mL
Cc1cn([C@@H]2O[C@H](C(CO[Si](C)(C)C(C)(C)C)O[Si](C)(C)C(C)(C)C)C3(OS(=O)(=O)C=C3N)[C@H]2O[Si](C)(C)C(C)(C)C)c(=O)[nH]c1=O ; strain: IIIB ; read by: cytopathic effect ; value: >136 µM
CCOC(=O)C12C(c3ccc(C)cc3)C3(C(=O)OCC)C4(C)OC1(C)C1(C(=O)OCC)C(c5ccc(C)cc5)C4(C(=O)OCC)C3(C)OC21C ; strain: IIIB ; read by: p24 / ELISA ; value: 0.02854 µM
O=C1O/C(=C\Cn2ccc(=O)[nH]c2=O)C(OCc2ccccc2)=C1O ; value: >50 µg/mL
O=C(COc1ccc2ccccc2c1)NCc1n[nH]c(=S)n1-c1ccccc1 ; strain: IIIB ; read by: MTT ; value: >20.2 µg/mL
CCOCn1c(C(=O)c2cccc(C#N)c2)c(CC)c(=O)[nH]c1=O ; strain: IIIB ; read by: MTT ; value: 0.1 µM
CCOC(=O)C12C(c3ccc(Cl)cc3)C3(C(=O)OCC)C4(C)OC1(C)C1(C(=O)OCC)C(c5ccc(Cl)cc5)C4(C(=O)OCC)C3(C)OC21C ; strain: IIIB ; read by: p24 / ELISA ; value: 0.03469 µM
FC(F)(F)[C@@]1(C#CC2CC2)OC(=S)Nc2ccc(Cl)cc21 ; strain: IIIB ; read by: MTT ; value: 0.003 µg/mL
Cc1ccc(O)c(O)c1 ; strain: IIIB ; read by: cytopathic effect / MTT ; value: 58 µg/mL
S=C(NCc1ccco1)Nc1ccccc1Br ; strain: IIIB ; read by: MTT ; value: >100 µM
Cn1c(Sc2ccccc2)c([N+](=O)[O-])c(=O)n(C)c1=O ; strain: IIIB ; value: >81.2 µg/mL
Cc1cc(C)cc(S(=O)(=O)c2c(C(=O)NS(=O)(=O)c3ccc(F)cc3F)[nH]c3ccc(Cl)cc23)c1 ; strain: IIIB ; read by: MTT ; value: 1.73 µM
CCOC(=O)C12C(c3ccc(C(F)(F)F)cc3)C3(C(=O)OCC)C4(C)OC1(C)C1(C(=O)OCC)C(c5ccc(C(F)(F)F)cc5)C4(C(=O)OCC)C3(C)OC21C ; strain: IIIB ; read by: p24 / ELISA ; value: 0.07552 µM
Cc1cc(O)ccc1O ; strain: IIIB ; read by: cytopathic effect / MTT ; value: 72 µg/mL
CCCS(=O)(=O)NC(=O)c1[nH]c2ccc(Cl)cc2c1S(=O)(=O)c1cc(C)cc(C)c1 ; mutations: E138K ; read by: MTT ; value: 0.92 µM
FC(F)(F)c1cccc(NC(=S)NC2CCN(Cc3ccccc3)CC2)c1 ; strain: IIIB ; read by: MTT ; value: >26 µM
NC(=O)c1[nH]c2ccc(Cl)cc2c1P(=O)(c1ccccc1)c1ccccc1 ; strain: BH10 ; mutations: K103N ; read by: cytopathic effect / MTS ; value: >1250 µM
CCOC(=O)C12C(c3ccc(N)cc3)C3(C(=O)OCC)C4(C)OC1(C)C1(C(=O)OCC)C(c5ccc(N)cc5)C4(C(=O)OCC)C3(C)OC21C ; strain: IIIB ; read by: p24 / ELISA ; value: 0.02677 µM
Cc1cn([C@@H]2O[C@H](CO[Si](C)(C)C(C)(C)C)[C@@]3(OS(=O)(=O)C([N+](=O)[O-])=C3N)[C@H]2O[Si](C)(C)C(C)(C)C)c(=O)n(C)c1=O ; value: 5.99 µM
Cc1cn([C@@H]2O[C@H](C(COC(=O)c3ccccc3)OC(=O)c3ccccc3)C3(OS(=O)(=O)C=C3N)[C@H]2O[Si](C)(C)C(C)(C)C)c(=O)[nH]c1=O ; strain: IIIB ; read by: cytopathic effect ; value: >5.6 µM
C[C@@H]1CCO[C@H]2Cn3cc(C(=O)NCc4ccc(F)cc4F)c(=O)c(O)c3C(=O)N12 ; mutations: L74F/V75I/N155H ; read by: p24 / ELISA / fluorescence ; value: >1 µM
Cc1ccc(NC(=S)NCc2ccco2)cc1Cl ; strain: IIIB ; read by: MTT ; value: >100 µM
Cc1cn([C@H]2C[C@H](N=[N+]=[N-])[C@@H](CO)O2)c(=O)[nH]c1=O ; strain: 89.6 ; read by: p24 / ELISA ; value: 0.00122 µM
O=C1OC(C(O)Cn2cc(F)c(=O)[nH]c2=O)C(OCc2ccccc2)=C1OCc1ccccc1 ; value: >50 µg/mL
Cc1cc(C)cc(S(=O)(=O)c2c(C(=O)NS(=O)(=O)c3ccc(F)cc3)[nH]c3ccc(Cl)cc23)c1 ; mutations: L100I ; read by: MTT ; value: 8.86 µM
O=C(O)[C@H]1O[C@@H](Oc2cc(O)c3c(=O)cc(-c4ccc(O)cc4)oc3c2)[C@H](O)[C@@H](O)[C@@H]1O ; strain: IIIB ; read by: cytopathic effect ; value: >0.32 µg/mL
CCOCn1c(Cc2ccccc2)c(C(C)C)c(=O)[nH]c1=O ; strain: IIIB ; read by: MTT ; value: 0.03 µM
O=C(COc1ccc2ccccc2c1)NCc1n[nH]c(=S)n1-c1ccc(Br)cc1 ; strain: IIIB ; read by: MTT ; value: ≥10.2 µg/mL

A second listing of 7 rows from above:

Cc1cc(C)cc(S(=O)(=O)c2c(C(N)=O)[nH]c3c(Cl)cc(Cl)cc23)c1 ; strain: IIIB ; read by: cytopathic effect / MTT / p24 ; value: 1.6 µM
CC1(C)CC=C(c2cn(-c3nccc(C(=O)NC4CCC(N5CC6CCC(C5)O6)CC4)n3)c3ccc(F)c([C@H](OC(C)(C)C)C(=O)O)c23)CC1 ; strain: NL4-3 ; mutations: T124S/T125A ; read by: luminescence ; value: 0.0055 µM
CC(C)=CCN1Cc2c(C)ccc3[nH]c(=S)n(c23)C[C@@H]1C ; strain: IIIB ; read by: cytopathic effect ; value: 0.136 µM
FC(F)(F)c1cccc(NC(=S)NC2CCN(Cc3ccccc3)CC2)c1 ; strain: IIIB ; read by: MTT ; value: >26 µM
CCCS(=O)(=O)NC(=O)c1[nH]c2ccc(Cl)cc2c1S(=O)(=O)c1cc(C)cc(C)c1 ; mutations: E138K ; read by: MTT ; value: 0.92 µM
CCOC(=O)C12C(c3ccc(C(F)(F)F)cc3)C3(C(=O)OCC)C4(C)OC1(C)C1(C(=O)OCC)C(c5ccc(C(F)(F)F)cc5)C4(C(=O)OCC)C3(C)OC21C ; strain: IIIB ; read by: p24 / ELISA ; value: 0.07552 µM
S=C(Nc1ccc(Cl)c(Cl)c1)NC1CCN(Cc2ccccc2)CC1 ; strain: IIIB ; read by: MTT ; value: >7.3 µM

Rows are shuffled and stem from different studies.